Taken from: PubChem BioAssay AID1259414 (Drosophila RNAi Screening Center, 2018)

Purpose: 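Host factors increasing or decreasing Wolbachia levels in cultured fly cells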 (primary screen)
System: Drosophila JW18 cells infected with Wolbachia
Reagent: long dsRNA against Drosophila genes, 0.25 µg dsRNA per well of a 384-well plate
Duration: 5 days
Challenge: cells persistently infected with Wolbachia before knock-down; no added drug
Measurement: 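Imaged fluorescence in situ signal for Wolbachia 23S rRNA per DAPI-counted host cell, given as a robust z-score within each plate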
Scale: Wolbachia per cell robust z: higher = more Wolbachia per host cell than the plate typical
Hit rule: 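Active if absolute robust z reaches 1.5 in two or more of three replicates, leaving out multi- or no-target dsRNAs, genes unexpressed in JW18 and A1 wells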
In all, the deposit lists about 24,000 reagents; this is a random part of those that have a named target and a result. Of all reagents, about 1,210 (5%) got an active call. 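Inactive calls also include excluded dsRNAs with several or no targets, genes unexpressed in JW18, and well A1, regardless of score.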 Names joined by + are all predicted targets of the reagent. Reagent sequences are not shown.

| target | dsRNA | Wolbachia per cell robust z, rep 1 | Wolbachia per cell robust z, rep 2 | Wolbachia per cell robust z, rep 3 | Call |
| --- | --- | --- | --- | --- | --- |
| AP-2sigma | DRSC15957 | -0.262 | 0.389 | 0.23 | inactive |
| JYalpha | DRSC17224 | 0.979 | 1.31 | 1.39 | inactive |
| JYalpha | DRSC21700 | 0.899 | 0.162 | -0.0554 | inactive |
| CG6184 | DRSC15986 | -3.83 | -4.58 | 0.554 | inactive |
| CG34325 | DRSC19802 | -1.55 | -2.73 | -0.674 | inactive |
| CG34325 | DRSC20200 | -0.746 | -0.127 | -3.07 | inactive |
| nrv3 | DRSC03097 | -0.304 | 0.219 | -0.123 | inactive |
| karr | DRSC20681 | -1.91 | -1.4 | 0.569 | inactive |
| Ste:CG33238 + Ste:CG33245 + Ste:CG33241 + 11 more | DRSC21260 | -0.371 | -0.924 | -1.05 | inactive |
| Atac1 | DRSC03155 | -2.64 | -0.709 | 0.482 | inactive |
| Rbpn-5 | DRSC04440 | -5.48 | 0.243 | -4.53 | active |
| Rbpn-5 | DRSC26142 | -0.85 | -1.04 | -1.04 | inactive |
| CG17109 | DRSC15172 | -0.701 | -0.138 | 1.01 | inactive |
| CG17109 | DRSC26637 | -2.82 | -0.824 | -0.0864 | inactive |
| CG4612 | DRSC04478 | -2.1 | -0.38 | 0.735 | inactive |
| Naglu | DRSC02267 | 0.0148 | -0.157 | -1.02 | inactive |
| Myo81F | DRSC37811 | -5.81 | 0.00245 | 0.0115 | inactive |
| Myo81F | DRSC37873 | 1.91 | -0.431 | 1.08 | inactive |
| Myo81F | DRSC38578 | 1.05 | 0.18 | 0.603 | inactive |
| Myo81F | DRSC38605 | -0.105 | 0.0247 | -0.266 | inactive |
| Myo81F | DRSC38734 | -7.28 | -1.12 | -1.87 | inactive |
| Myo81F | DRSC38783 | 1.75 | -0.52 | -0.447 | inactive |
| Myo81F | DRSC40563 | -1.11 | -0.0396 | 0.587 | inactive |
| Myo81F | DRSC41368 | 0.294 | -0.337 | -0.71 | inactive |
| Myo81F | DRSC41379 | -0.342 | 0.233 | -0.648 | inactive |
| CG31800 | DRSC22525 | -0.104 | 0.55 | 0.375 | inactive |
| CG31800 | DRSC29916 | 1.13 | 0.449 | 0.927 | inactive |
| Ir47a | DRSC06215 | 0.614 | 0.32 | 0.772 | inactive |
| Uba5 | DRSC19775 | 0.313 | 0.3 | -1.03 | inactive |
| CG13059 | DRSC09942 | 0.0419 | 0.14 | -2.33 | inactive |
| CG17377 | DRSC00950 | 0.288 | 0.441 | -2.12 | inactive |
| CG17377 | DRSC02615 | -0.729 | 0.981 | -0.293 | inactive |
| CG17377 | DRSC21811 | 0.204 | -0.561 | -0.0966 | inactive |
| CG17377 | DRSC28817 | 0.604 | 1.28 | 0.18 | inactive |
| CG1213 | DRSC12191 | 0.937 | -1.06 | -2.26 | inactive |
| lncRNA:CR33948 | DRSC37885 | -1.43 | -0.954 | -0.678 | inactive |
| mEFTu1 | DRSC06959 | -1.05 | 0.496 | -0.298 | inactive |
| mEFTu1 | DRSC29468 | 0.599 | -0.54 | 1.39 | inactive |
| CG11498 | DRSC14315 | 0.682 | -0.287 | -1.83 | inactive |
| CG4281 | DRSC18521 | 1.54 | 1.61 | 1.38 | active |
| CG4281 | DRSC28415 | 0.178 | 0.842 | -0.468 | inactive |
| CG5653 | DRSC10534 | 0.232 | 0.528 | -0.2 | inactive |
| CG5653 | DRSC29858 | -3.09 | -1.71 | 0.239 | inactive |
| CG5853 | DRSC01103 | 0.832 | 1.01 | 0.6 | inactive |
| CG5853 | DRSC02906 | -8.17 | 1.29 | -9.92 | inactive |
| Mec2 | DRSC20054 | 0.0694 | -0.327 | 0.183 | inactive |
| Mec2 | DRSC26162 | -0.644 | -0.674 | -0.0292 | inactive |
| prd | DRSC03597 | -0.16 | 0.491 | -1.46 | inactive |
| CG14118 | DRSC10122 | 0.0228 | 0.802 | 1.28 | inactive |
| Rad60 | DRSC15580 | 0.715 | 0.876 | 0.0921 | inactive |
| CG13423 | DRSC06386 | -0.884 | -0.902 | -0.622 | inactive |
| CG30109 | DRSC05675 | -1.56 | -0.731 | 0.568 | inactive |
| CG31897 | DRSC01020 | -0.34 | -1.43 | -1.08 | inactive |
| rux | DRSC18829 | -16.9 | -7.46 | -2.39 | active |
| CG1416 | DRSC03706 | -1.19 | 1.32 | -3.67 | inactive |
| CG30391 | DRSC21572 | -0.198 | -1.17 | -0.0458 | inactive |
| mthl8 | DRSC08211 | -1.4 | 0.999 | 0.185 | inactive |
| mthl8 | DRSC08311 | -0.23 | 0.695 | -0.272 | inactive |
| Ccp84Ag | DRSC12592 | 0.466 | -0.904 | -2.58 | inactive |
| Ccp84Ag | DRSC22085 | -0.262 | 0.355 | 0.382 | inactive |
| Ccp84Ag | DRSC30073 | -0.969 | -1.18 | -0.391 | inactive |
| Nf1 | DRSC16758 | -0.618 | -0.887 | -0.201 | inactive |
| Nf1 | DRSC29934 | -5.87 | -3.63 | 1.32 | active |
| Pif1 | DRSC00582 | -3.67 | -0.506 | 0.125 | inactive |
| CG13053 | DRSC09934 | -2.84 | 0.648 | -1.58 | inactive |
| cos | DRSC07598 | 0.396 | 0.887 | 0.379 | inactive |
| cos | DRSC28447 | -1.04 | -0.0118 | -0.395 | inactive |
| pns | DRSC08598 | 0.419 | -0.111 | -2.22 | inactive |
